The chains behind the UniProt entries cited, without tags or fusion partners. Where a name states a change or a piece, a line headed by the entry shows the natural chain unless it says otherwise.
UniProt P62136: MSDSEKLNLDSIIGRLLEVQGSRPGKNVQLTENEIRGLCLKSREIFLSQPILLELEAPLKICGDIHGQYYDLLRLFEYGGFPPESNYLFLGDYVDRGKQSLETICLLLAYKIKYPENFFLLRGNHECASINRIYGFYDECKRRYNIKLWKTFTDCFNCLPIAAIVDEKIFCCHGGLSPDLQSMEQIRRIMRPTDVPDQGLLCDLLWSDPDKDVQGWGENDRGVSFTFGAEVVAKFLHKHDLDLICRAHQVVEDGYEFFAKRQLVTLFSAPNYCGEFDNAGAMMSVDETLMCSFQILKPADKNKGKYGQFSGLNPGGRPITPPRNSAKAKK

In article PMC7764552, “Regulation Efficacy and Mechanism of the Toxicity of Microcystin-LR Targeting Protein Phosphatase 1 via the Biodegradation Pathway” (2020):

Biological target: PP1 (Homo sapiens, UniProt P62136)
Assay: Protein phosphatase 1 (PP1) inhibition assay, colorimetric

## (2S, 3S, 8S, 9S)-3-amino-9-methoxy-2,6,8-trimethyl-10-phenyldeca-4(E), 6(E)-dienoic acid
PP1 inhibition assay, conclusion
  secondary toxicity (PP1 inhibition), in words: non-negligible
colorimetric, p-nitrophenyl disodium orthophorphate 5 mM, 0.5 h pre-incubation with PP1, 1 h incubation, 405 nm, three repeated analyses, Figure 3
  inhibition effect on PP1 (in words): had a certain inhibition effect on PP1 at a higher concentration
